Source: patent US8062607B2, “Lens care methods and kits” (Novartis AG, priority 2006, dated 2011)

Experiment: Staining of contact lenses soaked in dye solutions
Conditions: all tested lenses; dye solution in Aquify MPS or PBS

Structure (SMILES) | staining of lenses
CCN(Cc1cccc(S(=O)(=O)[O-])c1)c1ccc(C(=C2C=CC(=[N+](CC)Cc3cccc(S(=O)(=O)[O-])c3)C=C2)c2ccccc2S(=O)(=O)[O-])cc1.[Na+].[Na+] [FD&C Blue No 1] | do not stain any tested lenses
Nc1c(S(=O)(=O)[O-])cc(NC2CCCCC2)c2c1C(=O)c1ccccc1C2=O.[Na+] [Acid Blue 62] | stain all tested lenses
Nc1c(S(=O)(=O)[O-])cc(Nc2cccc(S(=O)(=O)CCOS(=O)(=O)[O-])c2)c2c1C(=O)c1ccccc1C2=O.[Na+].[Na+] [Remazol Brilliant Blue] | do not stain any tested lenses

Some entries repeat one wording, which the source may state once for all of them.
